## Screening data, single-dose tests

Measurements from “University of Dundee, Small-Polar-MMV Screening Library” (2021), ChEMBL document CHEMBL3988442.

Mtb glucose medium: 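Whole-cell growth test on Mycobacterium tuberculosis, read after 3 days in glucose-containing 7H9 medium; the read-out is not stated. Compounds at 500 µM. The record gives no direction; compounds that gave an IC50 in retests scored well above the rest, so higher reads as more growth inhibition. Of about 18,000 compounds tested this way, about 1,400 (7.9%) reached 50% or more in at least one test.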
Mtb cholesterol medium: 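Phenotypic screen: M. tuberculosis growth, cholesterol and DPPC medium, 4 days; the read-out is not stated. Concentration: 500 µM. The record gives no direction; compounds that gave an IC50 in retests scored well above the rest, so higher reads as more growth inhibition. Of about 18,000 compounds tested this way, about 900 (5%) reached 50% or more in at least one test.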

Each number is a percent effect as filed.
The record does not define 0% and 100%; most values in the screen are far below 50% and negative numbers occur (in some assays of this library far below -100).
This is part of a subset picked to be rich in strong results.

Compound: CN(C)C1(CNC(=O)c2ccncc2)CCCC1
Mtb cholesterol medium: 20.07

Compound: CC(C)(C)C(=O)NCC(=O)Nc1ccccn1
Mtb cholesterol medium: -8.306

Compound: c1csc(CSCCNC2=NCCN2)c1
Mtb glucose medium: 54.98

Compound: CC(NCC1CC1)c1nnc2ccccn12 (stereo not drawn)
Mtb glucose medium: 9.262

Compound: CS(=O)(=O)NC1CCN(C(=O)c2cncc(F)c2)CC1
Mtb glucose medium: -1.694

Compound: COCC1CCN(CC(=O)Nc2ccn(C)n2)C1 (stereo not drawn)
Mtb cholesterol medium: 3.304

Compound: CC1CN(C)CCN1CC(=O)N1CCc2sccc2C1 (stereo not drawn)
Mtb glucose medium: 20.16

Compound: N[C@@H]1CC[C@@H](NC(=O)c2ccc(SCCO)cc2)C1
Mtb cholesterol medium: 20.04

Compound: O=C(CCn1cncn1)N1CCN(c2nccs2)CC1
Mtb glucose medium: 9.286

Compound: CC(C)[C@@H](CO)NCc1ccc(S(=O)(=O)N(C)C)cc1
Mtb glucose medium: 4.774

Compound: NCCC1C(=O)Nc2ccccc21 (stereo not drawn)
Mtb glucose medium: 20.91
Mtb cholesterol medium: 14.08

Compound: COCC(=O)NCC(c1ccsc1)N(C)C (stereo not drawn)
Mtb glucose medium: 6.673

Compound: CC(C)COCC(C)NC(=O)CCCn1cccn1 (stereo not drawn)
Mtb glucose medium: 40.25

Compound: CC(C)OC(C)C(=O)NCCNc1cccnc1 (stereo not drawn)
Mtb cholesterol medium: 11.53

Compound: CN(C)C(=O)CCCNC1CCC2(CCNCC2)CC1
Mtb glucose medium: 4.394

Compound: O=C(CN1CCCCCC1=O)OCC=CCl
Mtb cholesterol medium: 29.28

Compound: O=C(CCc1ccccc1)NCC1(O)CCOC1 (stereo not drawn)
Mtb glucose medium: -7.221

Compound: NS(=O)(=O)CC1CCCN1 (stereo not drawn)
Mtb cholesterol medium: -0.3575

Compound: CN(CCN)S(=O)(=O)c1cccs1
Mtb glucose medium: 7.313

Compound: CCn1ccc(C(=O)NC(C)c2ccccc2)n1 (stereo not drawn)
Mtb glucose medium: 76.34
Mtb cholesterol medium: 74.57

Compound: CC(=O)Nc1ccc(F)c(S(=O)(=O)N2CCOCC2)c1
Mtb glucose medium: 11.69

Compound: CC(=O)NCCNC(=O)c1ccncc1
Mtb glucose medium: 10.91

Compound: NCc1cccc(OCC(F)(F)F)n1
Mtb glucose medium: 0.9733

Compound: NC[C@@H]1CC(=O)N(C2CC2)[C@H]1c1cccnc1
Mtb glucose medium: 7.723

Compound: CCC(CNC(=O)c1ccncc1)N1CCCC1 (stereo not drawn)
Mtb cholesterol medium: -9.663

Compound: CCC(N)C(=O)Nc1ccc2c(c1)C(=O)CCC2 (stereo not drawn)
Mtb glucose medium: 56.59
Mtb cholesterol medium: 28.58

Compound: CCNc1ccc(C(F)(F)F)cn1
Mtb glucose medium: 11.87
Mtb cholesterol medium: 1.592

Compound: CCS(=O)(=O)CCNC(=O)c1cc(CC(C)C)on1
Mtb glucose medium: -12.34

Compound: CN1CCN(CC(O)CN(C)Cc2ccncc2)CC1 (stereo not drawn)
Mtb glucose medium: 4.806

Once more, the final 3:

Result for CCNc1ccc(C(F)(F)F)cn1 was Mtb glucose medium: 11.87%; Mtb cholesterol medium: 1.592%.
Result for CCS(=O)(=O)CCNC(=O)c1cc(CC(C)C)on1 was Mtb glucose medium: -12.34%.
Result for CN1CCN(CC(O)CN(C)Cc2ccncc2)CC1 (stereo not drawn) was Mtb glucose medium: 4.806%.